Reference: publication PMC7998855 (Toxins, 2021)
Where two headings read alike, the source gives them in different places.

Tested on: differentiated Caco-2 (C2BBe1) cells
[1] = 1 µg/mL DON + 10 ng/mL CER, 24 h, mean ± SD, 3 biological replicates
[2] = 1 µg/mL DON, 24 h, mean ± SD, 3 biological replicates
[3] = incubation with 10 µg/mL DON + 100 ng/mL CER, 24 h, transwell, LC-MS/MS, mean ± SD, 3 biological replicates
[4] = incubation with 10 µg/mL DON alone, 24 h, transwell, LC-MS/MS, mean ± SD, 3 biological replicates
[5] = two highest test concentrations, 24 h, overall

DON-3-glucuronide
Detection of DON-3-glucuronide as DON metabolite (all samples (media, lysates), 24 h, LOD 0.7 ng/mL incubation medium, 0.1 ng/mL lysate measurement solution): not detected in any sample

DON-3-sulfate
Ratio of DON-3-S to DON, basolateral medium [1]: 0.76 ± 0.02%
Ratio of DON-3-S to DON, cell lysates [1]: 30.2 ± 1.4%
Ratio of DON-3-S to DON, basolateral medium [2]: 0.94 ± 0.10%
Ratio of DON-3-S to DON, cell lysates [2]: 22.4 ± 1.9%
DON-3-S concentration in basolateral compared to apical medium (24 h, transwell, LC-MS/MS): approximately 6 times
DON-3-sulfate concentration in cell lysates (incubation with 1 µg/mL DON + 10 ng/mL CER, 24 h, LC-MS/MS, mean ± SD, 3 biological replicates): 0.038 ± 0.005 pg/µg cell protein
DON-3-sulfate concentration in basolateral medium (incubation with 1 µg/mL DON + 10 ng/mL CER, 24 h, transwell, LC-MS/MS, mean ± SD, 3 biological replicates): 0.6 ± 0.1 ng/mL
DON-3-sulfate concentration in cell lysates (incubation with 1 µg/mL DON alone, 24 h, LC-MS/MS, mean ± SD, 3 biological replicates): 0.028 ± 0.004 pg/µg cell protein
DON-3-sulfate concentration in basolateral medium (incubation with 1 µg/mL DON alone, 24 h, transwell, LC-MS/MS, mean ± SD, 3 biological replicates): 0.9 ± 0.1 ng/mL
DON-3-sulfate concentration in cell lysates (incubation with 10 µg/mL DON + 100 ng/mL CER, 24 h, LC-MS/MS, mean ± SD, 3 biological replicates): 0.33 ± 0.06 pg/µg cell protein
DON-3-sulfate concentration in apical medium [3]: 0.9 ± 0.2 ng/mL
DON-3-sulfate concentration in basolateral medium [3]: 5.4 ± 0.6 ng/mL medium
DON-3-sulfate concentration in cell lysates (incubation with 10 µg/mL DON alone, 24 h, LC-MS/MS, mean ± SD, 3 biological replicates): 0.25 ± 0.05 pg/µg cell protein
DON-3-sulfate concentration in apical medium [4]: 1.1 ± 0.2 ng/mL
DON-3-sulfate concentration in basolateral medium [4]: 6.7 ± 0.8 ng/mL medium
Ratio of DON-3-S in relation to DON, basolateral medium [5]: roughly 0.9%
Ratio of DON-3-S to DON, cell lysates [5]: 20-30%

DON-15-glucuronide
Detection of DON-15-glucuronide as DON metabolite (no analytical standard, at the expected retention time): no peaks were observed

DON-15-sulfate
Detection of DON-15-sulfate as DON metabolite (all samples (media, lysates), 24 h, LOD 0.2 ng/mL incubation medium, 0.03 ng/mL lysate measurement solution): not detected in any sample
